A mixed list of measured activities; the numbers were collected in NIAID ChemDB.

Common to all: tests in culture; organism: Rhinovirus; cell line: HeLa; measure: EC50

ECn: concentration that inhibits the pathogen or its effect by n%.

structure	strain or isolate	read by	value
C#CCOc1cc(OC)ccc1-c1cc(N(CC)CC)no1	Serotype 72 (group A)	cytopathic effect	>40 µM
Cc1cc(CCCCCOc2c(Cl)cc(C3=NCCO3)cc2Cl)on1	TYPE 89	plaque count	0.015 µg/mL
COCc1ccc(CCCOc2cc(C)c(-c3noc(C)n3)c(C)c2)nn1	serotypes 3 4 5 9 16 18 38 66 75 67	cytopathic effect	0.15 µg/mL
CS(=O)(=O)c1ccc(NCc2ccc(Cl)c(Cl)c2)nc1	TYPE 68	cytopathic effect	>10 µg/mL
CSc1ccc(CCCOc2cc(C)c(-c3noc(C(F)F)n3)c(C)c2)nn1	serotypes 3 4 5 9 16 18 38 66 75 67	cytopathic effect	0.03 µg/mL
CCN(CC)c1cc(-c2ccc(OC)cc2OC)on1	Serotype 15 (group B)	cytopathic effect	2.2 µM
CS(=O)(=O)c1ccc(NCCc2ccc(Cl)cc2)nc1	TYPE 1A	cytopathic effect	3.1 µg/mL
CS(=O)(=O)c1ccc(Oc2ccc(C(=O)c3ccccc3)cc2)nc1	TYPE 39	cytopathic effect	>10 µg/mL
COCc1cc(CCCOc2c(Cl)cc(-c3noc(C)n3)cc2Cl)on1	Serotype 50	cytopathic effect	0.074 µg/mL
O=C(c1ccccc1)c1ccc(Oc2ccc(S(=O)(=O)Cc3ccccc3)cn2)cc1	TYPE 64	cytopathic effect	>10 µg/mL
CCOc1cc(CCCOc2c(C)cc(-c3noc(C)n3)cc2C)on1	Serotype 1A	cytopathic effect	0.042 µg/mL
COc1ccc(-c2cc(N(C)C)no2)c(O)c1	Serotype 14	cytopathic effect	>427 µM
COCc1ccc(CCCOc2c(C)cc(-c3noc(C(F)F)n3)cc2C)nn1	serotypes 3 4 5 9 16 18 38 66 75 67	cytopathic effect	0.078 µg/mL
CCc1nc(-c2cc(C)c(OCCCc3cc(COC)no3)c(C)c2)no1	Serotype 22	cytopathic effect	0.008 µg/mL
CCS(=O)(=O)c1ccc(Cc2ccc(Cl)c(Cl)c2)nc1C(N)=O	TYPE 2	cytopathic effect	2.5 µg/mL
CCN(CC)c1noc(-c2ccc(O)cc2O)c1Cc1c(N(CC)CC)noc1-c1ccc(OC)cc1O	Serotype 2	cytopathic effect	>3.5 µM
CS(=O)(=O)c1ccc(Cc2ccc(Cl)cc2)nc1	TYPE 1A	cytopathic effect	0.3 µg/mL
CCOc1cc(OC)ccc1-c1cc(N(CC)CC)no1	Serotype 72 (group A)	cytopathic effect	>90 µM
CS(=O)(=O)c1ccc(Cc2ccc(Cl)c(Cl)c2)nc1	TYPE 21	cytopathic effect	>10 µg/mL
COc1ccc(-c2cc(N3CCCC3)no2)c(O)c1	Serotype 86 (group A)	cytopathic effect	>384 µM
Cc1cc(OCCCc2ccc(=S)[nH]n2)cc(C)c1-c1noc(C(F)F)n1	serotypes 3 4 5 9 16 18 38 66 75 67	cytopathic effect	0.05 µg/mL

The last 2 rows once more:

structure | strain or isolate | read by | value
COc1ccc(-c2cc(N3CCCC3)no2)c(O)c1 | Serotype 86 (group A) | cytopathic effect | >384 µM
Cc1cc(OCCCc2ccc(=S)[nH]n2)cc(C)c1-c1noc(C(F)F)n1 | serotypes 3 4 5 9 16 18 38 66 75 67 | cytopathic effect | 0.05 µg/mL

Conditions beyond the fields shown may differ between rows.